Test results from US8158670B2 (priority 1996, dated 2012).

Assays:
[1] = test system: A375 m/m marker-positive cells; experiment: Protein synthesis (3H-leucine) after 5 minute pulse; format: cell-based, human
[2] = test system: HT29 marker-negative cells; experiment: as above; format: cell-based
[3] = test system: target cell (BO54 and A375) or non-target cell (HT29); conditions: 5 minute exposure, 48 hours recovery; conjugates at the lower doses
[4] = test system: BO54 marker-positive smooth muscle cells; experiment: MTT metabolic activity after 24 hours exposure; format: cell-based, baboon; conditions: treated for 24 hours in vitro, overnight recovery
[5] = test system: BO54 marker-positive smooth muscle cells; experiment: MTT metabolic activity 48 hours after 5 minute pulse; format: cell-based, baboon; conditions: 48 hour recovery period
[6] = test system: BO54 arterial smooth muscle cells; experiment: Protein synthesis (3H-leucine) after 5 minute pulse; format: cell-based, baboon
[7] = test system: target (BO54 and M14) and non-target (HT29) cells; experiment: MTT metabolic activity after 24 hours exposure, target and non-target cells; format: cell-based; conditions: 24-hour incubation, 16-18 hours recovery
[8] = short-term, 3H-leucine for 4 hours immediately after

Substance: Roridin A
- protein synthesis (3H-leucine incorporation) ([1]; long-term, 16-18 hour recovery period before 3H-leucine): manifest even after a 16-18 hour recovery period
- protein synthesis (3H-leucine incorporation) [1, 8]: non-specifically inhibitory to test cells
- protein synthesis (3H-leucine incorporation) ([2]; short-term and long-term effects): dose-response inhibition of cellular protein synthesis
- protein synthesis (3H-leucine incorporation) [2, 8]: nonspecifically cytotoxic
- metabolic activity (MTT) over the long-term [3]: non-specifically inhibitory to target and non-target cell types
- cytotoxicity (MTT metabolic activity) [4]: undesirable cytotoxicity
- metabolic activity (MTT) [5]: non-specifically cytotoxic
- protein synthesis ([6]; long-term, 50 ng/ml): 98 % of control
- protein synthesis ([6]; long-term, 100 ng/ml): 46 % of control
- protein synthesis ([6]; long-term, 200 ng/ml): 27 % of control
- protein synthesis ([6]; short-term, 50 ng/ml): 90 % of control
- protein synthesis ([6]; short-term, 100 ng/ml): 66 % of control
- protein synthesis ([6]; short-term, 200 ng/ml): 60 % of control
- metabolic activity measured in the MTT assay [7]: significantly decreased
